Measured values from several laboratories, pooled; numbers as filed in NIAID ChemDB.

All rows: tests in culture; species: Mycobacterium avium complex

ECn is the concentration giving n% inhibition of infection, replication or growth.

| smiles | strain or isolate | method | endpoint | value |
|---|---|---|---|---|
| Cc1ccc2nc(C)c(C(=O)NCc3ccc(C(F)(F)F)cc3)n2c1 | Clinical isolate 224 | MTT | MIC | 0.06 µg/mL |
| C[C@H]1COc2c(N3CCN(C)CC3)c(F)cc3c(=O)c(C(=O)O)cn1c23 | ATCC 35718 | - | MIC | >8 µg/mL |
| COCc1c(CNc2cc(OC)c(OC)c(OC)c2)cnc2nc(N)nc(N)c12 | NJ3404 | - | MIC | >13 µg/mL |
| COc1cccc2c1nc1cccc(OC)c1[n+]2[O-] | 5 strains | - | MIC90 | 32 µg/mL |
| CCn1cc(C(=O)O)c(=O)c2cc(F)c(N3CCN(C)CC3)cc21 | 89 isolates | - | MIC50 | >16 µg/mL |
| Clc1nc(Sc2ccccc2Cl)c2[nH]cnc2n1 | NJ211 | - | MIC | >12.8 µg/mL |
| CN(C)C/C=C(\c1ccc(N)cc1)c1ccc(-c2ccc(Br)cc2)cc1 | - | - | MIC | 19.6 µg/mL |
| C[C@@H]1CN(c2c(F)c(N)c3c(=O)c(C(=O)O)cn(C4CC4)c3c2F)C[C@H](C)N1 | - | - | MIC50 | 1.56 µg/mL |
| Cc1c(CNc2ccc3c(c2)Cc2ccccc2-3)cnc2nc(N)nc(N)c12 | NJ3404 | - | MIC | ≤0.13 µg/mL |
| CC[C@H]1OC(=O)[C@H](C)[C@@H](OC2C[C@@](C)(OC)[C@@H](O)[C@H](C)O2)[C@H](C)[C@@H](O[C@@H]2O[C@H](C)C[C@H](N(C)C)[C@H]2O)C(C)(O)C[C@@H](C)/C(=N\OCc2ccccc2)[C@H](C)[C@@H](O)[C@]1(C)O | 20039 | - | MIC | 3.13 µg/mL |
| CN(C)C/C=C(\c1ccc(O)cc1)c1ccc(-c2ccc(Br)cc2)cc1 | - | - | MIC | 39 µg/mL |
| COC(OC)c1ccc2c(c1)C(=O)c1nc3ccncc3c(=O)n1-2 | 19075 | - | MIC | 5 µg/mL |
| C[C@@H]1CN(c2c(F)c(N)c3c(=O)c(C(=O)O)cn(C4CC4)c3c2F)C[C@H](C)N1 | 18 strains | - | MIC50 | 1.56 µg/mL |
| CCc1c(CNc2cc(C)ccc2OC)cnc2nc(N)nc(N)c12 | NJ168 | - | MIC | ≤0.13 µg/mL |
| CN(C)C/C=C(/c1ccc(Br)cc1)c1ccc(-c2ccc(Br)cc2)cc1 | - | - | MIC | 34 µg/mL |
| Clc1nc(Sc2ncc[nH]2)c2[nH]cnc2n1 | NJ211 | - | MIC | >12.8 µg/mL |
| CCOCOc1ccc2c(c1)C(=O)c1nc3ccncc3c(=O)n1-2 | 19075 | - | MIC | 1 µg/mL |
| CC[C@H]1OC(=O)[C@H](C)[C@@H](OC2C[C@@](C)(OC)[C@@H](O)[C@H](C)O2)[C@H](C)[C@@H](O[C@@H]2O[C@H](C)C[C@H](N(C)C)[C@H]2O)C(C)(O)C[C@@H](C)/C(=N\OCCc2ccccc2)[C@H](C)[C@@H](O)[C@]1(C)O | 20092 | - | MIC | >50 µg/mL |
| NC[C@H]1O[C@H](O[C@H]2[C@H](O)[C@@H](O[C@H]3O[C@H](CO)[C@@H](O)[C@H](N)[C@H]3O)[C@H](N)C[C@@H]2N)[C@H](N)C[C@@H]1O | ATCC 35718 | - | MIC | 8 µg/mL |
| COc1ccc(OC)c(NCc2cnc3nc(N)nc(N)c3c2C)c1 | NJ-168 serovar 4/6 | - | MIC | ≤0.128 µg/mL |
| CC(C)N=c1cc2n(-c3ccc(Cl)cc3)c3ccccc3nc-2cc1Nc1ccc(Cl)cc1 | - | - | MIC | 0.1 µg/mL |
| COc1ccccc1Sc1ncccn1 | NJ211 | - | MIC | >12.8 µg/mL |
| Cc1cc(Br)cc(C)c1NCc1cnc2nc(N)nc(N)c2c1C | NJ168 | - | MIC | ≤0.13 µg/mL |
| CC[C@H]1OC(=O)[C@H](C)[C@@H](OC2C[C@@](C)(OC)[C@@H](O)[C@H](C)O2)[C@H](C)[C@@H](O[C@@H]2O[C@H](C)C[C@H](N(C)C)[C@H]2O)C(C)(O)C[C@@H](C)/C(=N\OCCCCCc2ccccc2)[C@H](C)[C@@H](O)[C@]1(C)O | 20096 | - | MIC | 6.25 µg/mL |
| O=Cc1ccc2c(c1)C(=O)c1nc3ccncc3c(=O)n1-2 | 19075 | - | MIC | 5 µg/mL |
| Cc1ccc(C)c(Sc2ccncc2)c1 | NJ211 | - | MIC | >12.8 µg/mL |
| Cc1c(CN2CCSCC2)cc(-c2ccccc2F)n1-c1ccccc1F | 103317 | - | MIC | >16 µg/mL |
| COc1ccc(CSc2cc(C(N)=S)ccn2)cc1 | MY330/88 | - | MIC | 62 µM |
| CCCCCCCCO[C@H]1O[C@H](CO[C@H]2O[C@H](CN(CC3CCCCC3)CC3CCCCC3)[C@@H](O)[C@@H]2O)[C@@H](O)[C@@H]1O | NJ211 | - | MIC | 16 µg/mL |
| COc1ccc(C(F)(F)F)cc1NCc1cnc2nc(N)nc(N)c2c1C | NJ-168 serovar 1 | - | MIC | ≤0.128 µg/mL |
| Cc1c(CNc2cccc3ncccc23)cnc2nc(N)nc(N)c12 | NJ211 | - | MIC | ≤0.13 µg/mL |
| CN(C)C/C=C(\c1ccc(O)cc1)c1ccc(-c2ccccc2)cc1 | - | - | MIC | 98 µg/mL |
| N#Cc1ccnc(SCc2ccc(F)cc2)c1 | MY330/88 | - | MIC | 250 µM |
| CN(C)C/C=C(\c1ccc(I)cc1)c1ccc(-c2ccc(Br)cc2)cc1 | - | - | MIC | 19 µg/mL |
| Cc1c(CN2CCSCC2)cc(-c2ccccc2Cl)n1-c1ccccc1Cl | 103317 | - | MIC | 8 µg/mL |
| CCCO/N=C1\[C@H](C)CC(C)(O)[C@H](O[C@@H]2O[C@H](C)C[C@H](N(C)C)[C@H]2O)[C@@H](C)[C@H](OC2C[C@@](C)(OC)[C@@H](O)[C@H](C)O2)[C@@H](C)C(=O)O[C@H](CC)[C@@](C)(O)[C@H](O)[C@H]1C | 20096 | - | MIC | >50 µg/mL |
| CO[C@H]1/C=C/O[C@@]2(C)Oc3c(C)c(O)c4c(O)c(c(/C=N/N5CCN(C6CCCC6)CC5)c(O)c4c3C2=O)NC(=O)/C(C)=C\C=C\[C@H](C)[C@H](O)[C@@H](C)[C@@H](O)[C@@H](C)[C@H](OC(C)=O)[C@@H]1C | SK095 | - | MIC | 0.25 µg/mL |
| COc1ccc(C)c(NCc2cnc3nc(N)nc(N)c3c2C)c1 | NJ-168 serovar 4 | - | MIC | ≤0.128 µg/mL |
| Cc1c(CN2CCN(C)CC2)cc(-c2ccc(Cl)cc2)n1-c1ccc(Cl)cc1 | 103317 | - | MIC | 0.4 µg/mL |
| CCN=c1cc2n(-c3ccc(Cl)cc3)c3ccccc3nc-2cc1Nc1ccc(Cl)cc1 | 715 | - | MBC | 64 µg/mL |
| O=C(NCCCl)N1CCC(CN=c2cc3n(-c4ccc(Cl)cc4)c4ccccc4nc-3cc2Nc2ccc(Cl)cc2)CC1 | 100 | - | MIC | 8 µg/mL |
| NCC[C@H](O)C(=O)N[C@@H]1C[C@H](N)[C@@H](O[C@H]2O[C@H](CN)[C@@H](O)[C@H](O)[C@H]2O)[C@H](O)[C@H]1O[C@H]1O[C@H](CO)[C@@H](O)[C@H](N)[C@H]1O | 25 isolates | - | MIC50 | 16 µg/mL |
| NC[C@H]1O[C@H](O[C@H]2[C@H](O)[C@@H](O[C@H]3O[C@H](CO)[C@@H](O)[C@H](N)[C@H]3O)[C@H](N)C[C@@H]2N)[C@H](O)[C@@H](O)[C@@H]1O | CIPT 140310002 | - | MIC | 5 µg/mL |
| O=C1c2ccccc2-n2c1nc1ccncc1c2=O | 19075 | - | MIC | 5 µg/mL |
| CC(=O)NC[C@H]1CN(c2ccc(N3CCN(Cc4ccc([N+](=O)[O-])o4)CC3)c(F)c2)C(=O)O1 | 31 isolates | - | Geometric mean MIC | 7.823 µg/mL |
| CCc1ccc2c(c1)C(=O)c1nc3ccncc3c(=O)n1-2 | 19075 | - | MIC | 1 µg/mL |
| COc1ccc(C)c(NCc2cnc3nc(N)nc(N)c3c2C)c1 | NJ211 | - | MIC | ≤0.13 µg/mL |
| Cc1ccn2c(C(=O)NCc3ccc4c(c3)CCO4)c(C)nc2c1 | Clinical isolate 9141 | MTT | MIC | 2 µg/mL |
| COc1ccc(NC(=O)c2ccc3cc(O)ccc3c2)cc1 | Clinical isolate CIT19/06 (MAC) | broth dilution | MIC | 102 µM |
| N#Cc1ccnc(SCc2ccc(Br)cc2)c1 | MY330/88 | - | MIC | 250 µM |
| CC[C@H]1OC(=O)[C@H](C)[C@@H](OC2C[C@@](C)(OC)[C@@H](O)[C@H](C)O2)[C@H](C)[C@@H](O[C@@H]2O[C@H](C)C[C@H](N(C)C)[C@H]2O)C(C)(O)C[C@@H](C)/C(=N\OCCCc2ccccc2)[C@H](C)[C@@H](O)[C@]1(C)O | 20096 | - | MIC | 12.5 µg/mL |
| Cc1c(CN2CCSCC2)cc(-c2ccccc2)n1-c1ccccc1 | 103317 | - | MIC | >16 µg/mL |
| N#Cc1ccnc(SCc2ccc([N+](=O)[O-])cc2)c1 | MY330/88 | - | MIC | >1000 µM |
| C/C(=N\NC(N)=S)c1cccnc1 | 116 | - | MIC | 16 µg/mL |
| CCCCCCCCO/N=C1\[C@H](C)CC(C)(O)[C@H](O[C@@H]2O[C@H](C)C[C@H](N(C)C)[C@H]2O)[C@@H](C)[C@H](OC2C[C@@](C)(OC)[C@@H](O)[C@H](C)O2)[C@@H](C)C(=O)O[C@H](CC)[C@@](C)(O)[C@H](O)[C@H]1C | 20096 | - | MIC | 6.25 µg/mL |
| C[C@H]1NCc2cc(-c3ccc4c(=O)c(C(=O)O)cn(C5CC5)c4c3OC(F)F)ccc21 | 8 strains | - | MIC50 | 4 µg/mL |
| CCc1cc(C(N)=S)ccn1 | 713 strains | agar | EC50 | >5 µg/mL |
| Cc1c(CN2CCSCC2)cc(-c2ccccc2)n1-c1ccc(F)cc1 | 103317 | - | MIC | 2 µg/mL |
| NC(=S)c1ccnc(SCc2cccc(Cl)c2)c1 | MY330/88 | - | MIC | 31 µM |
| CN[C@@H]1[C@H](O[C@H]2[C@H](O[C@H]3[C@H](O)[C@@H](O)[C@H](N=C(N)N)[C@@H](O)[C@@H]3N=C(N)N)O[C@@H](C)[C@]2(O)C=O)O[C@@H](CO)[C@H](O)[C@H]1O | CIPT 140310006 | - | MIC | >50 µg/mL |
| NC(=O)c1cnccn1 | 33 strains (pyrazinamidase-positive) | - | EC50 | >100 µg/mL |
| CCCCCCCCS(=O)(=O)CC(N)=O | - | - | MIC | 25 µg/mL |
| NNC(=O)c1ccncc1 | 17 strains | - | MIC | >10 µg/mL |
| CCCCc1ccc2c(c1)C(=O)c1nc3ccncc3c(=O)n1-2 | 19075 | - | MIC | 0.06 µg/mL |
| CC[C@H]1OC(=O)[C@H](C)[C@@H](OC2C[C@@](C)(OC)[C@@H](O)[C@H](C)O2)[C@H](C)[C@@H](O[C@@H]2O[C@H](C)C[C@H](N(C)C)[C@H]2O)C(C)(O)C[C@@H](C)/C(=N\OCCc2cccs2)[C@H](C)[C@@H](O)[C@]1(C)O | 20092 | - | MIC | 50 µg/mL |
| Cc1ccc2c(c1)C(=O)c1nc3ccncc3c(=O)n1-2 | 19075 | - | MIC | 1 µg/mL |
| COc1ccccc1CSc1nc(=O)[nH]c2nc[nH]c12 | NJ211 | - | MIC | >12.8 µg/mL |
| CC(C)NC(=O)N1CCC(CN=c2cc3n(-c4ccc(Cl)cc4)c4ccccc4nc-3cc2Nc2ccc(Cl)cc2)CC1 | 101 | - | MIC | 8 µg/mL |
| Cc1c(F)c(N2CCNC(C)C2)cc2c1c(=O)c(C(=O)O)cn2C1CC1 | 41 clinical isolates | - | MIC90 | 16 µg/mL |
| CC[C@H]1OC(=O)[C@H](C)[C@@H](O[C@H]2C[C@@](C)(OC)[C@@H](OC(C)=O)[C@H](C)O2)[C@H](C)[C@@H](O[C@@H]2O[C@H](C)C[C@H](N(C)C)[C@H]2OC(=O)NNCCOc2ccccc2)C(C)(O)C[C@@H](C)/C(=N\OCCCC2CCCCC2)[C@H](C)[C@@H](O)[C@]1(C)O | 20039 (clarithromycin-susceptible) | - | MIC | 0.78 µg/mL |
| CC1(C)S[C@@H]2[C@H](NC(=O)[C@H](C(=O)[O-])c3ccsc3)C(=O)N2[C@H]1C(=O)[O-].[Na+].[Na+] | CIPT 140310003 (smooth) | - | MIC | 50 µg/mL |
| CN(C)C/C=C(/c1ccc(-c2ccc(Br)cc2)cc1)c1ccc([N+](=O)[O-])cc1 | - | - | MIC | 73 µg/mL |
| c1ccc(CSc2ccccn2)cc1 | NJ211 | - | MIC | >12.8 µg/mL |

The first 4 rows once more:

smiles | strain or isolate | method | endpoint | value
Cc1ccc2nc(C)c(C(=O)NCc3ccc(C(F)(F)F)cc3)n2c1 | Clinical isolate 224 | MTT | MIC | 0.06 µg/mL
C[C@H]1COc2c(N3CCN(C)CC3)c(F)cc3c(=O)c(C(=O)O)cn1c23 | ATCC 35718 | - | MIC | >8 µg/mL
COCc1c(CNc2cc(OC)c(OC)c(OC)c2)cnc2nc(N)nc(N)c12 | NJ3404 | - | MIC | >13 µg/mL
COc1cccc2c1nc1cccc(OC)c1[n+]2[O-] | 5 strains | - | MIC90 | 32 µg/mL

An empty or dashed field is not shown. Lines come from different laboratories, so protocols vary. A number after MIC or MFC names an inhibition level or a share of isolates.